Results of unrelated studies side by side (data: NIAID ChemDB).

Common to all: target-level tests; agent: HIV-1; target: Protease; read-out: Ki

Neighbouring rows are from separate reports.

compound	changes	strain or isolate	read by	result
O=S1(=O)N(Cc2ccc(CO)cc2)[C@H](COc2ccccc2)[C@H](O)[C@@H](O)[C@@H](COc2ccccc2)N1Cc1ccc(CO)cc1	PR-I84V			0.046 µM
CC(C)CN(C[C@@H](O)[C@H](Cc1ccccc1)NC(=O)O[C@@]1(C)CO[C@@]2(C)OCC[C@]21C)S(=O)(=O)c1ccc(NC(=O)CNC(=O)OC(C)(C)C)cc1			substrate cleavage / fluorescence	0.00031 µM
CCC(c1ccccc1)c1c(O)cc(CCc2ccccc2)oc1=O			absorbance	0.005 µM
CC(=O)c1cccc(CN2C(=O)N(Cc3cccc(C(C)=O)c3)[C@H](Cc3ccccc3)[C@H](O)[C@@H](O)[C@H]2Cc2ccccc2)c1		RF		0.00006 µM
CC[C@H](C)[C@H](NC(=O)[C@@H]1CCCN1C(=O)[C@H](Cc1ccccc1)NC(=O)C=O)C(=O)N[C@H](C(N)=O)C(C)C			absorbance	700 µM
CNC(=O)[C@@H](NC(=O)[C@H](OCc1ccccc1)[C@H](O)[C@@H](O)[C@@H](OCc1ccccc1)C(=O)N[C@H](C(=O)NC)C(C)C)C(C)C			substrate cleavage	0.0004 µM
CNC(=O)[C@@H](NC(=O)[C@H](OCc1ccccc1)[C@H](O)[C@@H](O)[C@@H](OCc1ccccc1)C(=O)N[C@H]1c2ccccc2C[C@H]1O)C(C)C				0.000054 µM
C/C(=N\O)c1cccc(CN2C(=O)N(Cc3cccc(/C(C)=N/O)c3)[C@H](Cc3ccccc3)[C@H](O)[C@@H](O)[C@H]2Cc2ccccc2)c1		RF		0.000018 µM
CCC(c1cccc(NS(=O)(=O)c2ccc(C#N)cn2)c1)c1c(O)c2c(oc1=O)CCCCCCCC2			substrate cleavage	0.00025 µM
O=C1N(Cc2cccc(-c3cnc[nH]3)c2)[C@H](Cc2ccccc2)[C@H](O)[C@@H](O)[C@@H](Cc2ccccc2)N1Cc1cccc(-c2cnc[nH]2)c1		RF	fluorescence	0.00019 µM
O=C(N[C@@H](Cc1ccccc1)[C@@H](O)CN(Cc1ccc(-c2ccccn2)cc1)NC(=O)[C@@H]1CN(c2ccccc2)C(=O)O1)[C@@H]1CN(c2ccccc2)C(=O)O1	Q7K		substrate cleavage / FRET	0.3 µM
CC(C)(C)OC(=O)N[C@@H](Cc1ccccc1)[C@@H](O)C[C@@H](Cc1ccc(OCCN2CCOCC2)cc1)C(=O)N[C@H]1c2ccccc2C[C@H]1O	PR-M46I		fluorescence	0.000054 µM
CC(C)(C)OC(=O)N[C@@H](Cc1ccccc1)[C@H](O)CNC[C@@H](O)[C@H](Cc1ccccc1)NC(=O)C(C)(O)C(C)(C)C			substrate cleavage	0.018 µM
CC[C@H](C)[C@H](NC(=O)[C@H](Cc1ccccc1)NC[C@@H](O)[C@H](Cc1ccccc1)NC(=O)OC(C)(C)C)C(=O)N[C@@H](Cc1ccccc1)C(N)=O			absorbance	0.0055 µM
CCC(c1ccccc1)c1c(O)c2c(oc1=O)C(Cc1ccccc1)CCCCC2			substrate cleavage	0.266 µM
O=Cc1cccc(CN2C(=O)N(Cc3cccc(C=O)c3)[C@H](Cc3ccccc3)[C@H](O)[C@@H](O)[C@H]2Cc2ccccc2)c1		RF		0.00044 µM
CC[C@H](C)[C@H](NC(=O)[C@@H]1CCCN1C(=O)[C@H](Cc1ccccc1)NC(=O)[C@H](CC(N)=O)NC(=O)C=O)C(=O)N[C@H](C(N)=O)C(C)C			absorbance	950 µM
O=[P@]12OC([C@@H](O)[C@@H](Cc3ccccc3)N1Cc1ccc(CO)cc1)[C@@H](Cc1ccccc1)N2Cc1ccc(CO)cc1			substrate cleavage	0.0006 µM
CC[C@H](C)[C@H](NC(=O)[C@H](Cc1ccccc1)C[C@@H](O)[C@H](Cc1ccccc1)NC(=O)OC(C)(C)C)C(=O)N[C@@H](Cc1ccccc1)C(N)=O			absorbance	0.0014 µM
CC(C)(C)OC(=O)N[C@@H](Cc1ccccc1)[C@H](O)[C@H](O)[C@H](Cc1ccccc1)NC(=O)OC(C)(C)C			fluorescence	0.022 µM
COC(=O)c1ccc(CN2C(=O)N(Cc3ccc(C(=O)OC)cc3)[C@H](COc3ccccc3)[C@H](O)[C@@H](O)[C@H]2COc2ccccc2)cc1			absorbance	0.0092 µM
CC(C)(C)OC(=O)N[C@@H](Cc1ccccc1)[C@@H](O)[C@H](O)[C@H](Cc1ccccc1)NC(=O)OC(C)(C)C			absorbance	0.038 µM
CC(C)(C)NC(=O)[C@@H]1CCCN1C(=O)[C@@H](O)[C@H](Cc1ccccc1)NC(=O)[C@H](CC(N)=O)NC(=O)c1ccc2ccccc2n1		IIIB	HPLC	0.027 µM
CC(C)(C)OC(=O)N[C@H](CCN[C@@H](Cc1ccccc1)C(=O)N[C@@H](CCC(=O)O)C(=O)N[C@@H](Cc1ccccc1)C(N)=O)Cc1ccccc1			absorbance	0.00005 µM
CN1[C@H](COc2ccccc2)[C@H](O)[C@@H](O)[C@@H](COc2ccccc2)N(C)S1(=O)=O	PR-G48V L90M			3.5 µM
CC(C)(C)OC(=O)N[C@@H](Cc1ccccc1)[C@@H](O)C[C@H](Cc1ccccc1)C(=O)N[C@@H](CCC(N)=O)C(=O)N[C@@H](Cc1ccccc1)C(N)=O			absorbance	0.0004 µM
COC(=O)N[C@H](C(=O)N[C@@H](Cc1ccccc1)[C@@H](O)CN(Cc1ccc(-c2ccccn2)cc1)NC(=O)[C@@H](NC(=O)OC)C(C)(C)C)C(C)(C)C		HXB2	absorbance	0.000044 µM
CCN[C@H]1CO[C@@H]2OC[C@H](OC(=O)N[C@@H](Cc3cc(F)cc(F)c3)[C@H](O)CN(CC(C)C)S(=O)(=O)c3ccc4nc(NC5CC5)sc4c3)[C@@H]21			substrate cleavage / fluorescence	0.0002 µM
CN[C@H]1CO[C@@H]2OC[C@H](OC(=O)N[C@@H](Cc3ccccc3)[C@H](O)CN(CC(C)C)S(=O)(=O)c3ccc(OC)cc3)[C@@H]21			substrate cleavage / fluorescence	0.0314 µM
CCC(c1cccc(NC(=O)[C@H](C)N)c1)c1c(O)c2ccccc2oc1=O			substrate cleavage	0.18 µM
CNC(=O)c1cccc(CN2[C@H](COc3ccccc3)[C@H](O)[C@@H](O)[C@@H](COc3ccccc3)N(Cc3cccc(C(=O)NC)c3)S2(=O)=O)c1	PR-I84V			0.56 µM
COC(=O)N[C@H](C(=O)N[C@@H](Cc1ccccc1)[C@@H](O)CN(Cc1ccc(-c2ccccn2)cc1)NC(=O)[C@@H](NC(=O)OC)C(C)(C)C)C(C)(C)C	Q7K		substrate cleavage / FRET	0.000046 µM
CC(C)(C)OC(=O)N[C@@H](Cc1ccccc1)[C@H](O)CN[C@@H](Cc1ccccc1)C(=O)N[C@@H](CCC(=O)O)C(=O)N[C@@H](Cc1ccccc1)C(N)=O			absorbance	0.0001 µM
O=C(Cc1ccc2c(c1)OCO2)N[C@@H](Cc1ccccc1)[C@@H](O)C[C@H](Cc1ccccc1)NC(=O)[C@@H]1CN(c2ccccc2)C(=O)O1			FRET	0.657 µM
CC(C)(C)OC(=O)[C@@H]1CCCN1C(=O)[C@@H](O)[C@H](Cc1ccccc1)NC(=O)[C@H](CC(N)=O)NC(=O)OCc1ccccc1		IIIB	HPLC	0.058 µM
CC(C)(C)OC(=O)N[C@@H](Cc1ccccc1)[C@H](O)CN[C@@H](Cc1ccccc1)C(=O)N[C@@H](CCC(N)=O)C(=O)N[C@@H](Cc1ccccc1)C(N)=O			absorbance	0.014 µM
CC(C)[C@H](NC(=O)N(C)Cc1ccccn1)C(=O)N[C@@H](Cc1ccccc1)[C@H](O)[C@H](O)[C@H](Cc1ccccc1)NC(=O)[C@@H](NC(=O)N(C)Cc1ccccn1)C(C)C			substrate cleavage	0.00001 µM
CCN[C@H]1CO[C@@H]2OC[C@H](OC(=O)N[C@@H](Cc3ccccc3)[C@H](O)CN(CC(C)C)S(=O)(=O)c3ccc4nc(NC5CC5)sc4c3)[C@@H]21			substrate cleavage / fluorescence	0.0002 µM
CNC(=O)[C@@H](NC(=O)[C@H](OCc1ccccc1)[C@@H](O)[C@H](O)[C@@H](OCc1ccccc1)C(=O)N[C@H](C(=O)NC)C(C)C)C(C)C			substrate cleavage	0.04 µM
CNC(=O)CN1[C@H](COc2ccccc2)[C@H](O)[C@@H](O)[C@@H](COc2ccccc2)N(CC(=O)NC)S1(=O)=O	PR-V82A			110 µM
Cc1ccc(S(=O)(=O)N(CC(C)C)[C@@H](CCCCNC(=O)[C@H](CC2C=Nc3ccccc32)NC(=O)OC(C)(C)C)C(=O)O)cc1			FRET	0.0016 µM
CC(C)(C)NC(=O)[C@@H]1CCCN1C(=O)[C@@H](O)[C@H](Cc1ccccc1)NC(=O)[C@H](CC(N)=O)NC(=O)c1cnc2ccccc2n1		IIIB	HPLC	0.011 µM
CCC(C1=C(O)C2CCCCCC2OC1=O)c1cccc(NS(=O)(=O)c2ccc(C#N)cn2)c1			substrate cleavage	0.0002 µM
O=[P@]12O[C@@H]([C@@H](O)[C@@H](Cc3ccccc3)N1Cc1ccc3ccccc3c1)[C@@H](Cc1ccccc1)N2Cc1ccc2ccccc2c1			substrate cleavage	0.66 µM
CC(C)C[C@H](NC(=O)[C@@H](N)CO)C(=O)N[C@@H](CC(N)=O)C(=O)N[C@@H](Cc1ccccc1)B(O)O	PR-M46I V82F I84V L90M		HPLC	46 µM
O=[P@]12OC([C@@H](O)[C@@H](Cc3ccccc3)N1Cc1ccc(O)cc1)[C@@H](Cc1ccccc1)N2Cc1ccc(O)cc1			substrate cleavage	0.0049 µM
CCC(c1ccccc1)c1c(O)c2c(oc1=O)CCCCCCCC2			substrate cleavage	>2 µM
CC(C)C[C@H](NC(=O)[C@@H](N)[C@@H](C)O)C(=O)N[C@@H](CC(N)=O)C(=O)N[C@@H](Cc1ccccc1)B1O[C@H](C2CCCCC2)[C@@H](C2CCCCC2)O1			HPLC	80 µM

Repeating the final 6 entries:

{"compound": "CCC(C1=C(O)C2CCCCCC2OC1=O)c1cccc(NS(=O)(=O)c2ccc(C#N)cn2)c1", "read by": "substrate cleavage", "result": "0.0002 µM"}
{"compound": "O=[P@]12O[C@@H]([C@@H](O)[C@@H](Cc3ccccc3)N1Cc1ccc3ccccc3c1)[C@@H](Cc1ccccc1)N2Cc1ccc2ccccc2c1", "read by": "substrate cleavage", "result": "0.66 µM"}
{"compound": "CC(C)C[C@H](NC(=O)[C@@H](N)CO)C(=O)N[C@@H](CC(N)=O)C(=O)N[C@@H](Cc1ccccc1)B(O)O", "changes": "PR-M46I V82F I84V L90M", "read by": "HPLC", "result": "46 µM"}
{"compound": "O=[P@]12OC([C@@H](O)[C@@H](Cc3ccccc3)N1Cc1ccc(O)cc1)[C@@H](Cc1ccccc1)N2Cc1ccc(O)cc1", "read by": "substrate cleavage", "result": "0.0049 µM"}
{"compound": "CCC(c1ccccc1)c1c(O)c2c(oc1=O)CCCCCCCC2", "read by": "substrate cleavage", "result": ">2 µM"}
{"compound": "CC(C)C[C@H](NC(=O)[C@@H](N)[C@@H](C)O)C(=O)N[C@@H](CC(N)=O)C(=O)N[C@@H](Cc1ccccc1)B1O[C@H](C2CCCCC2)[C@@H](C2CCCCC2)O1", "read by": "HPLC", "result": "80 µM"}

Blank or dashed fields: not listed here.